A mixed list of measured activities; the numbers were collected in NIAID ChemDB.

Common to all: cytotoxicity tests; cells: VERO; measure: CC50

CCn is the concentration with n% toxicity to the cells.

structure,method,value
Fc1cc(Cl)ccc1N=C1/C(=C/c2ccco2)CNC/C1=C\c1ccco1,MTT,446 µg/mL
CCn1cc2c(=O)n(-c3ccccc3)nc-2c2ccc(-c3ccncc3)cc21,-,>100 µg/mL
Cc1nc2ccc(NCCN(C)C)c3c(=O)c4ccccc4n1c23,-,1.72 µg/mL
CCn1cc(C(=O)NCCN(C)C)c(=O)c2ccc(-c3ccncc3)cc21,-,>100 µg/mL
Nc1ncnc2c1ncn2[C@H]1OC[C@@](F)(CCP(=O)(O)O)[C@H]1F,MTT,>100 µM
Cc1cccc(C)c1NC1=CC(=O)C(=O)c2ccccc21,-,4.9 µg/mL
NC(=S)NN=C1/C(=C/c2ccco2)CNC/C1=C\c1ccco1,MTT,402 µg/mL
Cc1ccc(-n2cc(C(N)=O)c(=O)c3ccc(-c4ccncc4)cc32)cc1,-,>25 µg/mL
Cc1ccc(S(=O)(=O)Oc2ccc3sc4c(CO)ccc(NCCN(C)C)c4c(=O)c3c2)cc1,-,2.51 µg/mL
COc1c2ccccc2nc2oc3ccccc3c12,MTT,11.77 µg/mL
O=C1Nc2ccccc2C(c2ccccc2)=NC1NCc1ccco1,-,50 µM
Nc1ncnc2c1ncn2CCOCP(=O)(O)O,MTT,>100 µM
Cc1[nH]nc(C(=O)N/N=C/c2cccs2)c1N=NN(C)C,-,1.46 µg/mL
Cc1cccc(C)c1Nc1nc(-c2ccncn2)cs1,luminescence,51 µM
O=c1[nH]c(=O)n([C@H]2C[C@H](F)[C@@H](CO)O2)cc1/C(I)=C/I,-,82.7 µM
O=S(=O)(O)c1ccc(Cl)c(-c2c3nc(c(-c4c(Cl)ccc(S(=O)(=O)O)c4Cl)c4ccc([n-]4)c(-c4c(Cl)ccc(S(=O)(=O)O)c4Cl)c4ccc([n-]4)c(-c4c(Cl)ccc(S(=O)(=O)O)c4Cl)c4nc2C=C4)C=C3)c1Cl.[Na+],-,0.31 µM
CC1(C)N=C(N)N=C(N)N1c1ccc(CCCC(=O)Nc2ccc(S(=O)(=O)F)cc2)c(Cl)c1.CCS(=O)(=O)O,-,14.9 µg/mL
CCOC(=O)c1c[nH]cc1-c1ccc(Cl)cc1Cl,-,2 µg/mL
NC(=O)c1cn([C@H]2C[C@H](O)[C@@H](CO)O2)c2ncnc(N)c12,-,12 µM
CCC(C)C(N)C(=O)O[C@H]1C[C@H](n2cc(/C=C/Br)c(=O)[nH]c2=O)O[C@@H]1COP1(=O)OCc2cccc(C)c2O1,-,64.4 µg/mL
NC(=O)c1cn(-c2ccccc2F)c2cc(-c3ccncc3)ccc2c1=O,-,>1.6 µg/mL
COc1ccc(CC(N=Cc2ccc(O)cc2)C(=O)N[C@H]2[C@@H](O)[C@H](n3cnc4c(N(C)C)ncnc43)O[C@@H]2CO)cc1,-,1.7 µg/mL
CCCCCc1ccc(-c2cc3cn(C/C=C/C(O)CO)c(=O)nc3o2)cc1,-,>100 µM
NC(=S)c1cn([C@@H]2O[C@H](CO)[C@@H](O)[C@@H]2O)c2ncnc(N)c12,-,1 µM
Nc1nc2ncn(COCCO)c2c(=O)[nH]1,-,99 µg/mL
Oc1ccccc1-c1c2nc(c(-c3ccccc3O)c3ccc([nH]3)c(-c3ccccc3O)c3nc(c(-c4ccccc4O)c4ccc1[nH]4)C=C3)C=C2,-,5.3 µM
O=c1[nH]c(=O)n(COCCO)cc1C#Cc1ccccc1,-,21.6 µM
O=C(Nc1ccn(-c2ccccn2)n1)NC1CCCC1,luminescence,>100 µM
Nc1ncnc2c1[nH]c[n+]2C1C[C@H]2C[C@@H]1C[NH2+]2.O=C([O-])C(F)(F)F.O=C([O-])C(F)(F)F,MTS,>109 µM
Cc1ccc2c(c1)COP(=O)(OCCOCn1cnc3c(=O)[nH]c(N)nc31)O2,-,>314 µM
NN=C1/C(=C/c2ccco2)CNC/C1=C\c1ccco1,MTT,76 µg/mL
CC[n+]1c(-c2ccccc2)c2cc(N)ccc2c2ccc(N)cc21,-,37.6 µg/mL
COc1cc(O)c(CC=C(C)C)c2c1C(=O)CC(c1ccc(O)cc1)O2,-,18 µg/mL
Nc1ncnc2c1ncn2CCOCP(=O)(O)O,-,>100 µM
NC(=O)c1cn([C@@H]2O[C@H](CO)[C@@H](O)[C@@H]2O)c2ncnc(N)c12,-,40 µM
OC(c1cc(-c2ccccc2)nc2c1ccc1ccccc12)C1CCCCN1,-,1.8 µg/mL
CC(C)(C)C(=O)NC1N=C(c2ccccc2)c2ccccc2NC1=O,-,6 µM
CCN(CC)C(=S)S[Se](SC(=S)N(CC)CC)(SC(=S)N(CC)CC)SC(=S)N(CC)CC,-,0.4 µg/mL
O=C(Cc1nn(Cc2ccc(Br)cc2F)c(=O)c2ccccc12)Nc1ccc(Br)cc1,MTT,>115 µM
O=C(O)P(=O)(O)O,-,190 µg/mL
Cc1cccc(C)c1NC(=O)Cc1nn(Cc2ccc(Br)cc2F)c(=O)c2ccccc12,MTT,>126 µM
O=C(NC1N=C(c2ccccc2)c2ccccc2NC1=O)c1ccc(Br)cc1,-,5 µM
CC1(C)Oc2cc3oc(-c4cc(O)cc(OC5OC[C@@H](O)[C@H](O)[C@H]5O)c4)cc3cc2CC1O,-,250 µg/mL
CC(CN1CCN(CCOCCO)CC1)CN1c2ccccc2Sc2ccc(Cl)cc21,-,5.94 µg/mL
Nc1nc(=O)n([C@@H]2C=C[C@@H](CO)O2)cc1F,-,>100 µM
O=C(Cc1nn(Cc2ccc(Br)cc2F)c(=O)c2ccccc12)Nc1ccccc1C(F)(F)F,MTT,117 µM
Nc1nc2c(ncn2COCCOP(=O)(O)C(=O)O)c(=O)[nH]1,-,>2857 µM
Cc1ccc2nc(-c3cccc([N+](=O)[O-])c3)c(N=O)n2c1,-,3.27 µg/mL
CCOC(=O)c1cn(Cc2ccc(F)cc2)cc1-c1ccc(OC)cc1,-,2 µg/mL
N#Cc1cccc(C2=N[C@H](C(=O)OCc3ccccc3)CO2)c1,MTS / absorbance,>128 µM
C[C@]1(CCP(=O)(O)O)CO[C@@H](n2cnc3c(N)ncnc32)C1,-,>100 µM
CCCCCCCCC#Cc1cn(COCCO)c(=O)[nH]c1=O,-,19.3 µM
O=C1NC(=O)c2c1c1c3cc(Cl)ccc3[nH]c1c1[nH]c3ccc(Cl)cc3c21,-,>125 µM
Cc1cn([C@H]2C[C@H](N=[N+]=[N-])[C@@H](CO)O2)c(=O)nc1N,-,>400 µM
c1ccc(-c2csc(Nc3ccc4ccccc4c3)n2)nc1,luminescence,9 µM
NC(=O)N=C1/C(=C/c2ccco2)CNC/C1=C\c1ccco1,MTT,424 µg/mL
O=c1[nH]c(=O)n([C@H]2C[C@H](F)[C@@H](CO)O2)cc1C#CI,-,22.9 µM
O=c1[nH]cc(F)c(=O)[nH]1,-,6.81 µM
Nc1nc2c(ncn2CCC(CO)COP2(=O)OCc3ccccc3O2)c(=O)[nH]1,-,>294 µM
O=C1NC(=O)c2c1c1c3cc(Br)ccc3[nH]c1c1[nH]c3ccc(Br)cc3c21,-,>125 µM
CC(C)(C)OC(=O)N1[C@H]2CC[C@@H]1C(n1cnc3c(NC4CC4)ncnc31)C2,MTS,>135 µM
Nc1ncnc2c1ncn2C[C@@H](CO)OCP(=O)(O)O,-,10 µg/mL
O=C1NC(=O)c2c1c1c3ccccc3[nH]c1c1[nH]c3ccccc3c21,-,>125 µM
O=c1[nH]c(=O)n([C@H]2C[C@H](O)[C@@H](COP3(=O)OCc4cc(Cl)ccc4O3)O2)cc1/C=C/Br,-,72.9 µg/mL
O=C([O-])C(F)(F)F.O=C([O-])C(F)(F)F.c1nc([NH2+]C2CC2)c2ncn(C3C[C@H]4C[C@@H]3C[NH2+]4)c2n1,MTS,>303 µM
CCOC(=O)C(NC(=O)CC(C)C)(N1CCN(c2cc3c(cc2F)c(=O)c(C(=O)O)cn3C2CC2)CC1)C(F)(F)F,-,>10 µg/mL
CCOC(=O)c1cn(Cc2ccc(F)cc2)cc1-c1ccccc1,-,4 µg/mL
COc1ccc(Nc2c3ccccc3nc3oc4ccccc4c23)cc1,MTT,3.63 µg/mL
O=C1c2cccnc2-c2nccc3c2c1nc1ccccc13,-,>10 µg/mL
CC[C@H](C)[C@H](N)C(=O)O[C@H]1C[C@H](n2cc(/C=C/Br)c(=O)[nH]c2=O)O[C@@H]1COP1(=O)OCc2cccc(C)c2O1,-,60.6 µg/mL
CCCCCc1cc2cn(COCCO)c(=O)nc2o1,-,3.1 µM
O=C([O-])C(F)(F)F.O=C([O-])C(F)(F)F.c1nc([NH2+]C2CC2)c2ncn(C3C[C@@H]4CC[C@H]3[NH2+]4)c2n1,MTS,>100 µM
OC(c1cc(-c2ccccc2)nc2cc(Cl)ccc12)C1CCCCN1,-,1.5 µg/mL
COc1ccccc1Nc1nc(-c2ccccn2)cs1,luminescence,17 µM
[N-]=[N+]=N[C@H]1C[C@H](n2cc(/C(Br)=C\I)c(=O)[nH]c2=O)O[C@@H]1CO,-,27.7 µM
O=C1C=C(Nc2ccccc2)c2ccccc2C1=O,-,3.38 µg/mL
Nc1nc(=O)n([C@H]2C=C[C@@H](CO)O2)cc1I,-,>100 µM
NC(=O)c1c[nH]cc1-c1ccc(Cl)cc1Cl,-,0.125 µg/mL
Nc1ncnc2c1ncn2[C@H]1OC[C@@](F)(C=CP(=O)(O)O)[C@H]1F,MTT,>100 µM
O=C1NC(=O)[C@@H](c2c[nH]c3ccccc23)[C@H]1c1c[nH]c2ccccc12,-,143 µM
CN1C(=O)[C@]23CC4=CC=C[C@H](O)[C@H]4N2C(=O)[C@@]1(CO)SS3,-,0.46 µg/mL
O=[N+]([O-])c1c[nH]cc1-c1cc(Cl)cc(Cl)c1,-,1 µg/mL
C[N+](C)(C)C(=O)Nc1nc(-c2ccccn2)cs1,luminescence,54 µM
NC(=O)c1cn(C2CC2)c2cc(-c3ccncc3)ccc2c1=O,-,>25 µg/mL
C=C[C@]1(C)C=C2c3c[nH]c4cccc(c34)C(C)(C)[C@H]2C[C@H]1O,-,>100 µM
Nc1nc2ncn(COCCCl)c2c(=O)[nH]1,-,145 µg/mL
O=C(O)c1cn(Cc2ccc(Cl)cc2)cc1-c1ccc(Cl)cc1,-,8 µg/mL
N/C(=N/O)c1cn([C@@H]2O[C@H](CO)[C@@H](O)[C@@H]2O)c2ncnc(N)c12,-,>100 µM
Nc1nc(=O)n([C@H]2C=C[C@@H](CO)O2)cc1Br,-,>100 µM
O=C1Nc2ccccc2C(c2ccccc2)=NC1NS(=O)(=O)c1ccc(Br)cc1,-,10 µM
COc1cccc(N2CCN(C(=O)Cc3nn(Cc4ccc(Br)cc4F)c(=O)c4ccccc34)CC2)c1,MTT,>111 µM
C[n+]1ccc(C2=C3C=CC(=N3)C(c3ccc(-c4ccccc4)cc3)=C3C=CC(=C(c4cc[n+](C)cc4)C4=NC(=C(c5ccc(-c6ccccc6)cc5)C5=CC=C2[NH2+]5)C=C4)[NH2+]3)cc1.[Cl-],-,0.84 µM
O=c1[nH]c(=O)n([C@H]2C[C@H](O)[C@@H](CO)O2)cc1C12B3B4B5B6B(B3B1B42)B1B5C61,-,17.3 µM
O=C1NC(=O)c2c1c1c3ccc(O)cc3[nH]c1c1[nH]c3cc(O)ccc3c21,-,84 µM
COc1ccc2c(C)cc(N/N=C/c3ccc(OC)c4ccccc34)nc2c1,-,1.27 µg/mL
Cc1cn(CCC(CO)CO)c(=O)[nH]c1=O,-,>593 µM
CC1OP(=O)(OC[C@H]2O[C@@H](n3cc(/C=C/Br)c(=O)[nH]c3=O)C[C@@H]2O)Oc2cccc(Cl)c21,-,70.4 µg/mL
O=C(C=Cc1ccc(O)c(O)c1)O[C@@H]1C[C@](O)(C(=O)O)C[C@@H](O)[C@H]1O,-,>512 µg/mL
Cc1nccc2c(C)c3c(cc12)c1ccccc1n3CCC1CO1,-,0.05 µg/mL
Nc1ncnc2c1ncn2COCCO,-,209 µg/mL
Cn1c(=O)c2nc(-c3ccccc3)nnc2n(C)c1=O,-,1.03 µg/mL
NC(=O)c1cn(-c2ccc(F)cc2)c2cc(-c3ccccc3)ccc2c1=O,-,>12.5 µg/mL

11 of the rows above, restated:

structure	method	value
O=c1[nH]c(=O)n([C@H]2C[C@H](O)[C@@H](CO)O2)cc1C12B3B4B5B6B(B3B1B42)B1B5C61	-	17.3 µM
N/C(=N/O)c1cn([C@@H]2O[C@H](CO)[C@@H](O)[C@@H]2O)c2ncnc(N)c12	-	>100 µM
COc1cccc(N2CCN(C(=O)Cc3nn(Cc4ccc(Br)cc4F)c(=O)c4ccccc34)CC2)c1	MTT	>111 µM
NN=C1/C(=C/c2ccco2)CNC/C1=C\c1ccco1	MTT	76 µg/mL
NC(=O)c1cn(C2CC2)c2cc(-c3ccncc3)ccc2c1=O	-	>25 µg/mL
O=C1NC(=O)[C@@H](c2c[nH]c3ccccc23)[C@H]1c1c[nH]c2ccccc12	-	143 µM
Cn1c(=O)c2nc(-c3ccccc3)nnc2n(C)c1=O	-	1.03 µg/mL
Cc1nccc2c(C)c3c(cc12)c1ccccc1n3CCC1CO1	-	0.05 µg/mL
Nc1nc(=O)n([C@H]2C=C[C@@H](CO)O2)cc1I	-	>100 µM
OC(c1cc(-c2ccccc2)nc2cc(Cl)ccc12)C1CCCCN1	-	1.5 µg/mL
[N-]=[N+]=N[C@H]1C[C@H](n2cc(/C(Br)=C\I)c(=O)[nH]c2=O)O[C@@H]1CO	-	27.7 µM

An empty or dashed field is not shown. Lines come from different laboratories, so protocols vary.